Reference: paper PMC13415800 (Pharmaceutics, 2026)

What was measured:
ZIKV (MR766, Uganda) = assay type: cell-based, Zika virus; details: selectivity index; Vero E6
CHIKV (Guatemala) = test: CPE inhibition assay, CHIKV on Vero E6; assay type: cell-based, chikungunya virus; details: selectivity index

| Compound | ZIKV SI (ZIKV (MR766, Uganda)) | CHIKV SI (CHIKV (Guatemala)) |
| --- | --- | --- |
| CC(=O)N[C@H]1[C@H](O[C@@H]2c3ccc(c(Cl)c3)Oc3cc4cc(c3O)Oc3ccc(cc3Cl)C[C@H]3NC(=O)[C@H](NC(=O)CCC(F)(F)C(F)(F)C(F)(F)C(F)(F)C(F)(F)C(F)(F)C(F)(F)C(F)(F)F)c5ccc(O)c(c5)Oc5cc(O)cc(c5)[C@H](NC3=O)C(=O)N[C@H]4C(=O)N[C@H]3C(=O)N[C@@H]2C(=O)N[C@H](C(=O)O)c2cc(O)cc(O)c2-c2cc3ccc2O)O[C@H](CO)[C@@H](O)[C@@H]1O [Compound 6] | 28.44 | 2.86 |
| CC(=O)N[C@H]1[C@H](O[C@@H]2c3ccc(c(Cl)c3)Oc3cc4cc(c3O)Oc3ccc(cc3Cl)C[C@H]3NC(=O)[C@H](n5cc(COCCOCCCC(F)(F)C(F)(F)C(F)(F)C(F)(F)C(F)(F)C(F)(F)F)nn5)c5ccc(O)c(c5)Oc5cc(O)cc(c5)[C@H](NC3=O)C(=O)N[C@H]4C(=O)N[C@H]3C(=O)N[C@@H]2C(=O)N[C@H](C(=O)O)c2cc(O)cc(O)c2-c2cc3ccc2O)O[C@H](CO)[C@@H](O)[C@@H]1O [Compound 2] | 16.59 | – |
| CC(=O)N[C@H]1[C@H](O[C@@H]2c3ccc(c(Cl)c3)Oc3cc4cc(c3O)Oc3ccc(cc3Cl)C[C@H]3NC(=O)[C@H](n5cc(COCCOCCCC(F)(F)C(F)(F)C(F)(F)C(F)(F)C(F)(F)C(F)(F)C(F)(F)C(F)(F)F)nn5)c5ccc(O)c(c5)Oc5cc(O)cc(c5)[C@H](NC3=O)C(=O)N[C@H]4C(=O)N[C@H]3C(=O)N[C@@H]2C(=O)N[C@H](C(=O)O)c2cc(O)cc(O)c2-c2cc3ccc2O)O[C@H](CO)[C@@H](O)[C@@H]1O [Compound 1] | 6.13 | – |
| COC(=O)C1NC(=O)C2NC(=O)C(NC(=O)C3NC(=O)C4NC(=O)C(NC(=O)C(NC(=O)CCC(F)(F)C(F)(F)C(F)(F)C(F)(F)C(F)(F)C(F)(F)C(F)(F)C(F)(F)F)c5ccc(O)c(c5)Oc5cc4cc(O)c5C)C(O)c4ccc(cc4)Oc4cc3cc(c4O)Oc3ccc(cc3)C2O)c2ccc(O)c(c2)-c2c(O)cc(O)cc21 (stereo not shown) [Compound 8] | 1.48 | 4.46 |
| CC(=O)N[C@H]1[C@H](O[C@@H]2c3ccc(c(Cl)c3)Oc3cc4cc(c3O)Oc3ccc(cc3Cl)C[C@H]3NC(=O)[C@H](n5cc(COCCOCCCC(F)(F)C(F)(F)C(F)(F)C(F)(F)F)nn5)c5ccc(O)c(c5)Oc5cc(O)cc(c5)[C@H](NC3=O)C(=O)N[C@H]4C(=O)N[C@H]3C(=O)N[C@@H]2C(=O)N[C@H](C(=O)O)c2cc(O)cc(O)c2-c2cc3ccc2O)O[C@H](CO)[C@@H](O)[C@@H]1O [Compound 3] | – | 5.52 |

The index is printed as in the source, without its formula.
